Assays:
[1] = system: Flu A Duck/MN/1525/81 (H5N1); format: cell-based, influenza virus
[2] = BALB/c, mouse, in vivo, 10 mg/kg/day

Question: What does the source list for CCC(CC)O[C@@H]1C=C(C(=O)O)C[C@H](NC(=N)N)[C@H]1NC(C)=O [GOC, 4-guanidinio oseltamivir carboxylate]?
Answer: fold more active than OC [1]: 100 fold; Survivors/Total [2]: 5/5

Source: patent US20130023585A1, “Neuraminidase Inhibitors” (TSRL, INC., priority 2010, published 2013)
